The values that follow come from patent US20230143470A1 (THE SCRIPPS RESEARCH INSTITUTE, priority 2020, published 2023).

The nature of this data set: general procedure: Fmoc solid-phase peptide synthesis; 2-chlorotrityl chloride resin; HBTU, HObt and DIPEA (lactam cyclization). To be noted: conjugation step.

Take P7-TAMRA probe: the conjugation yield is 95% yield.
